A mixed list of measured activities; the numbers were collected in NIAID ChemDB.

All rows: tests in culture; agent: Mycobacterium tuberculosis

Two numbers with a dash give a range or band. Conditions beyond the fields shown may differ between rows. An empty or dashed field is not shown. ECn: concentration that inhibits the pathogen or its effect by n%. MIC bound comes from a single tested concentration. Inhibition is in % at the dose shown (toxicity tests: loss of growth or viability). A number after MIC or MFC names an inhibition level or a share of isolates.

compound	strain or isolate	cells	read by	endpoint	dose	value
C[n+]1ccccc1C(=O)NN.Cc1ccc(S(=O)(=O)[O-])cc1	H37Rv		BACTEC	MIC bound		>12.5 µg/mL
CCC(C)OC(=O)N1CCN(c2nc3nc(N4CCCCC4)ccc3cc2-c2ccccc2)CC1	H37Rv			inhibition	6.25 µg/mL	92%
CCc1nc2c(O)cccc2cc1C	H37Rv			MIC50		5–10 µg/mL
CO[C@H]1/C=C/O[C@@]2(C)Oc3c(C)c(O)c4c(=O)c(c5oc6cc(N7CCN(CC(C)C)CC7)cc(=O)c6nc5c4c3=C2O)NC(=O)/C(C)=C\C=C\[C@H](C)[C@H](O)[C@@H](C)[C@@H](O)[C@@H](C)[C@H](OC(C)=O)[C@@H]1C	9 (rifampicin-resistant)			MIC		4 µg/mL
Cc1ccc(CSc2ncn[nH]2)cc1	My 331/88			MIC		1000 µM
O=C(/C=C/C=C/c1ccc2c(c1)OCO2)NC1C2CC3CC(C2)CC1C3	H37Rv		resazurin	MIC		1.42 µM
CCOc1ccc2ccccc2c1C(=O)N[C@@H]1C(=O)N2[C@@H]1SC(C)(C)[C@@H]2C(=O)O	Isolate 2			MIC		>16 µg/mL
COc1cc(Cc2cnc(/N=C3\C(=O)N(CN4CCN(c5cccc(C(F)(F)F)c5)CC4)c4ccc(F)cc43)nc2N)cc(OC)c1OC	H37Rv			inhibition	6.25 µg/mL	40%
Nc1ccc2cc(-c3ccccc3)c(N3CCCCC3)nc2n1	H37Rv			inhibition	6.25 µg/mL	59%
COc1cc(Cc2cnc(/N=C3\C(=O)N(CN4CCN(c5ccccc5)CC4)c4ccc(F)cc43)nc2N)cc(OC)c1OC	H37Rv			inhibition	6.25 µg/mL	33%
CCCCCCCCCCCC(=O)CC1c2c(ccc(OC)c2OC)-c2ccc3cc4c(cc3c2N1C)OCO4	H37Rv (ATCC 27294)		broth dilution / turbidity	MIC		>50 µg/mL
Cc1cccc(CSc2ncn[nH]2)c1	My 331/88			MIC		1000 µM
COc1ccc(/C=N/NC(=O)CC(=O)N/N=C/c2ccc(OC)cc2)cc1	H37Rv		BACTEC	MIC		≥12.5 µg/mL
O=C(/C=C/C=C/c1ccc2c(c1)OCO2)NC12CC3CC(CC(C3)C1)C2	H37Rv		resazurin	MIC		0.36 µM
COc1cc(Cc2cnc(N)nc2N)cc(OC)c1OCc1ccc(S(=O)(=O)c2ccc(N)cc2)cc1	H37Rv			MIC		>61.4 µM
C[C@@H]1[C@@H](NC(=O)/C=C/C=C/c2ccc3c(c2)OCO3)C[C@@H](C)C(C)(C)[C@H]1C	H37Rv		resazurin	MIC		0.18 µM
CC(=O)Oc1ccccc1C(=O)Nc1ncc([N+](=O)[O-])s1	X spoligotype 70		visual reading	MIC		16 µg/mL
CCCCCCNc1c([N+](=O)[O-])cc(C)cc1[N+](=O)[O-]	H37Rv		BACTEC	MIC bound		≤12.5 µg/mL
COc1cc(Cc2cnc(/N=C3\C(=O)N(CN4CCN(C)CC4)c4ccc(F)cc43)nc2N)cc(OC)c1OC	H37Rv			EC50		>6.25 µg/mL
CC/C=C/C(CC)CCC[C@@]1(CC)C[C@H](CC)[C@H](CC(=O)O)OO1				inhibition	64 µg/mL	83%
COc1cc(/C=C/CO)cc2cc(-c3ccc4c(c3)OCO4)oc12	H37Ra ATCC 25177		broth dilution / turbidity	MIC		>50 µg/mL
c1ccc(-c2cc3ccc(N4CCCCC4)nc3nc2N2CCNCC2)cc1	H37Rv			MIC		>6.25 µg/mL
CCOC(=O)CCN1C(=O)c2ccc(NC(=O)C(=O)O)cc2S1(=O)=O	H37Rv		BACTEC	MIC bound		>12.5 µg/mL
CC(C)(C)OC(=O)NCCNC1=CC(=O)c2nc3ccccc3c3ccnc1c23	H37Rv			MIC		2 µM
Cc1ccc(C)n1-c1ccc(C(=O)NN2C(=O)c3ccccc3C2=O)cc1	H37Rv		resazurin	MIC		0.4 µg/mL
Cc1ccc2cccnc2c1O	H37Rv			MIC50		0.5–1 µg/mL
CCO/C=N/c1c(C#N)c(-c2ccc(Cl)cc2)cn1-c1ccc(C)cc1	H37Rv		BACTEC	inhibition	12.5 µg/mL	0%
Fc1ccccc1CSc1ncn[nH]1	My 331/88			MIC		500 µM
Cc1cc(O)c2ncccc2c1	H37Rv			MIC50		0.5–1 µg/mL
Brc1cccc(CSc2ncn[nH]2)c1	My 331/88			MIC		500 µM
O=C1OC2OC3OC(=O)C4C3CC2C14	H37Rv		BACTEC	MIC bound		>12.5 µg/mL
Cc1ccc(C)n1-c1ccc(C(=O)NN2C(=O)C=CC2=O)cc1	H37Rv		resazurin	MIC		12.5 µg/mL
CC1(C)[C@H](C(=O)O)N2C(=O)C[C@H]2S1(=O)=O	Isolate 4			MIC		>16 µg/mL
NC(=O)c1c(N)ncn1C1COC(CO)C1O	H37Rv		BACTEC	inhibition	12.5 µg/mL	0%
CCSC1=CC(=O)c2nc3ccccc3c3ccnc1c23	H37Rv			MIC		0.34 µM
COc1cc(Cc2cnc(/N=C3\C(=O)N(CN4CCN(c5ccc(Cl)cc5)CC4)c4ccc(F)cc43)nc2N)cc(OC)c1OC	H37Rv			EC50		>6.25 µg/mL
C=C1CC(=O)N(NC(=O)c2ccc(-n3c(C)ccc3C)cc2)C1=O	H37Rv		resazurin	MIC		3.125 µg/mL
CSC1C(=O)c2nccc3c2c(nc2ccccc23)C1CCNC(C)=O	H37Rv			MIC		>17 µM
Cc1ccc2c(c1)C(=O)N(NC(=O)c1ccc(-n3cccc3)cc1)C2=O	H37Rv		resazurin	MIC		3.125 µg/mL
O=[N+]([O-])c1cc(CSc2ncn[nH]2)cc([N+](=O)[O-])c1	My 331/88			MIC		62.5 µM
CC(=O)NCCC1C2=C3C(=NC=CC3C3C=CC=CC3N2)c2ncsc21	H37Rv			MIC		>34 µM
CCN1CCN(c2cc(-c3ccccc3)c3ccc(=O)[nH]c3n2)CC1	H37Rv			MIC		>6.25 µg/mL
CCCCCCCCCC(=O)N[C@H]1[C@H](Oc2c3cc4cc2Oc2ccc(cc2Cl)[C@@H](O[C@@H]2O[C@H](CO)[C@@H](O)[C@H](O)[C@H]2NC(C)=O)[C@@H]2NC(=O)[C@H](NC(=O)[C@@H]4NC(=O)[C@H]4NC(=O)[C@@H](Cc5ccc(c(Cl)c5)O3)NC(=O)[C@H](N)c3ccc(O)c(c3)Oc3cc(O)cc4c3)c3ccc(O)c(c3)-c3c(O[C@H]4O[C@H](CO)[C@@H](O)[C@H](O)[C@@H]4O)cc(O)cc3[C@H](C(=O)O)NC2=O)O[C@H](CO)[C@@H](O)[C@@H]1O	L1904			MIC		>64 µg/mL
CCn1cc(C(=O)O)c(=O)c2cc(F)c(N3CCNCC3)cc21				MIC50		4 µg/mL
CCN(CC)CCNc1ccc(CO)c2oc3cc(Cl)ccc3c(=O)c12	H37Rv		BACTEC	MIC bound		>12.5 µg/mL
COc1ccc(Cc2cnc(N)nc2N)cc1OCCNc1ccc(S(=O)(=O)c2ccc(N)cc2)cc1	H37Rv			MIC		11.5 µM
Cc1cc(=O)n2c(nc3ccccc32)o1	H37Rv		resazurin	MIC bound		>6.25 µg/mL
COc1ccc(Cc2cnc(N)nc2N)cc1OCCCNc1ccc(S(=O)(=O)c2ccc(N)cc2)cc1	H37Rv			MIC		2.1 µM
COc1ccc(C(=O)NCCN2CCN3Cc4[nH]c5ccccc5c4CC3C2)cc1	H37Rv		resazurin	inhibition	6.25 µg/mL	47%
COc1ccc2cc(-c3ccccc3)c(N3CCNCC3)nc2n1	H37Rv			MIC		>6.25 µg/mL
CCN(CC)CN1C(=O)/C(=N\c2ncc(Cc3cc(OC)c(OC)c(OC)c3)c(N)n2)c2cc(F)ccc21	H37Rv			inhibition	6.25 µg/mL	19%
O=[N+]([O-])c1ccccc1S(=O)(=O)c1cccc2c1NCCC2	H37Rv		BACTEC	MIC bound		>12.5 µg/mL
c1ccc(-c2cc(N3CCCCC3)nc3nc(N4CCCCC4)ccc23)cc1	H37Rv	VERO		MIC		6.25 µg/mL
C=C1CC(=O)N(NC(=O)c2ccc(-n3cccc3)cc2)C1=O	H37Rv		resazurin	MIC		3.125 µg/mL
CC/C=C/C(CC)CCC[C@@]1(CC)C[C@H](CC)[C@H](CC(=O)OC)OO1				inhibition	16 µg/mL	34%
O=C(Cc1cccs1)N[C@@H]1C(=O)N2C(C(=O)[O-])=C(C[n+]3ccccc3)CS[C@H]12	Isolate 1			MIC		>16 µg/mL
O=C1OCC(Cc2ccc3c(c2)OCO3)/C1=C\c1ccc2c(c1)OCO2	H37Rv (ATCC 27294)		broth dilution / turbidity	MIC		>50 µg/mL
CC(=O)OCC1=C(C(=O)O)N2C(=O)[C@@H](NC(=O)Cc3cccs3)[C@H]2SC1	Isolate 5			MIC		>16 µg/mL
O=c1ccc2c(-c3ccccc3)cc(N3CCOCC3)nc2[nH]1	H37Rv			MIC		>6.25 µg/mL
CN(C)N1C(=O)C(=O)N(c2cccc3ccccc23)C1=O	H37Rv		BACTEC	inhibition	12.5 µg/mL	0%
CC(C)C[C@@H]1NC(=O)[C@H](Cc2c[nH]c3ccccc23)NC(=O)[C@@H](CCCN)NC(=O)[C@H](CC(=O)NCc2ccccc2)NC(=O)[C@H](C(C)C)NC(=O)[C@@H](CC(C)C)NC1=O	H37Rv		resazurin	MIC		5 µM
Clc1ccc2c(-c3ccccc3)cc(N3CCOCC3)nc2n1	H37Rv			MIC		>6.25 µg/mL
CCN(CC)C(=S)[S][Bi]([S]C(=S)N(CC)CC)[S]C(=S)N(CC)CC	KM-R			MIC		1.6 µg/mL
CCCCCCCCSC1=CC(=O)c2nc3ccccc3c3ccnc1c23	H37Rv			MIC		1 µM
COc1cc(Cc2cnc(N)nc2N)cc(OC)c1OCCNc1ccc(S(=O)(=O)c2ccc(N)cc2)cc1	H37Rv			MIC		32.7 µM
COc1ccc2c(-c3ccccc3)cc(N3CCNCC3)nc2n1	H37Rv			inhibition	6.25 µg/mL	85%
COc1cc(/C=C/C2c3c(ccc(OC)c3OC)-c3ccc4cc5c(cc4c3N2C)OCO5)ccc1O	H37Ra ATCC 25177		broth dilution / turbidity	MIC		>50 µg/mL
O=C(/C=C/C=C/c1ccc2c(c1)OCO2)NC1CCCCC1	H37Rv		resazurin	MIC		1.67 µM
C[C@H]1COc2c(N3CCN(C)CC3)c(F)cc3c(=O)c(C(=O)O)cn1c23	35 strains			MIC		16 µg/mL
NC(=S)NNC(=S)S	H37Rv			MIC		>12.5 µg/mL
CSc1cnc2c3c(nc4ccccc4c13)C(CCNC(C)=O)CC2=O	H37Rv			MIC		>17 µM
O=C(NN1C(=O)c2ccccc2C1=O)c1ccc(-n2cccc2)cc1	H37Rv		resazurin	MIC		0.4 µg/mL
CCC1CCC[C@H](NC(=O)/C=C/C=C/c2ccc3c(c2)OCO3)C1	H37Rv		resazurin	MIC		1.6 µM
Nc1nccnc1C(=O)O	H37Rv		BACTEC	inhibition	12.5 µg/mL	2%
CCOC(=O)/C=C/c1ccc(OC)cc1	BTB08-043		resazurin	MIC		242 µM
CC1=C(C)C(=O)O[C@H]([C@](C)(O)[C@]2(O)CC[C@@]3(O)[C@@H]4C[C@H](Cl)[C@]5(O)[C@@H](O)C=CC(=O)[C@]5(C)[C@H]4CC[C@]23C)C1	H37Rv		BACTEC	MIC bound		>12.5 µg/mL
Cc1cc(N)c2ncccc2c1	M 607			MIC50		>25 µg/mL
CCCCc1c(O)c(N=NC(=N)N)c2ccccc2c1O	H37Rv		BACTEC	MIC bound		>12.5 µg/mL
O=c1c2ccccc2nc2n1CCc1c-2[nH]c2ccccc12	H37Rv (ATCC 27294)		broth dilution / turbidity	MIC		>50 µg/mL
O=C(N/N=C/c1ccc(O)cc1O)c1cccnc1	H37Rv		BACTEC	MIC bound		>12.5 µg/mL
O=Cc1ccc(O)c2ncccc12	M 607			MIC50		>25 µg/mL
CCN1CCN(CC)C1=S	H37Rv		BACTEC	inhibition	12.5 µg/mL	0%
COc1ccc2c(c1OC)C(CC(C)=O)N(C)c1c-2ccc2cc3c(cc12)OCO3	H37Rv (ATCC 27294)		broth dilution / turbidity	MIC		>50 µg/mL
Cc1ccc([N+](=O)[O-])cc1Cl	H37Rv		BACTEC	MIC bound		>12.5 µg/mL
COc1cc(Cc2cnc(/N=C3\C(=O)N(CN4CCN(c5cccc(Cl)c5)CC4)c4ccc(F)cc43)nc2N)cc(OC)c1OC	H37Rv			EC50		>6.25 µg/mL